{"source": "paper PMC4802734", "about": "(Cell Chemical Biology, 2016)", "key": {"[1]": {"molecular_target": "PrfAWT (Listeria monocytogenes serovar 1/2a, UniProt P22262)"}, "[2]": {"molecular_target": "PrfAG145S (Listeria monocytogenes serovar 1/2a, UniProt P22262, G145S)", "conditions": "ITC, determined at 293 K"}, "[3]": {"molecular_target": "PrfAWT binding to hly-DNA (Listeria monocytogenes serovar 1/2a, UniProt P22262)", "experiment": "SPR, binding of compound-pre-incubated PrfAWT to hly-promoter DNA", "conditions": "read-out: IC50, reduction of binding of PrfAWT to hly-DNA, 200 nM protein, 37°C"}, "[4]": {"system": "L. monocytogenes strain EGDe (WT) uptake by HeLa cells", "experiment": "Viable count uptake experiment, L. monocytogenes EGDe in HeLa cells", "conditions": "10 and 1 μM"}, "[5]": {"system": "LLO and ActA expression in L. monocytogenes", "experiment": "Western blot of virulence protein levels (LLO, ActA, PrfA, P60), EGDe"}, "[6]": {"system": "LLO expression in L. monocytogenes 10403S, LO28 and F2365", "experiment": "Western blot of LLO and PrfA in other L. monocytogenes strains (10403S, LO28, F2365)", "conditions": "100 μM"}, "[7]": {"system": "pilus biogenesis in E. coli", "conditions": "3.6 mM; ref Pinkner et al., 2006; cited from earlier work"}, "[8]": {"system": "Crp-regulated pili expression in E. coli", "conditions": "800 μM; ref Cegelski et al., 2009; Chorell et al., 2010; cited from earlier work"}}, "note": "Where two headings read alike, the source gives them in different places."}
{"compound": "O=C(O)[C@@H]1CSc2c(C3CC3)c(Cc3cccc4ccccc34)cc(=O)n21", "values": [{"measurement": "binding stoichiometry per monomer of homodimeric PrfA", "setting": "[1]; ITC", "value": "1 to 1"}, {"measurement": "Kd", "setting": "[1]; ITC, determined at 293 K", "value": 1, "unit": "µM"}, {"measurement": "ΔHA, enthalpy of association", "setting": "[1]; ITC, determined at 293 K", "value": "-8.4 ± 0.1", "unit": "kcal/mol"}, {"measurement": "ΔSA, entropy of association", "setting": "[1]; ITC, determined at 293 K", "value": "−0.8 ± 0.1", "unit": "cal/mol·K"}, {"measurement": "Kd", "setting": "[1]; read-out: dissociation constant (KD), ITC, 1 to 1 binding model", "value": 1, "unit": "µM"}, {"measurement": "Kd", "setting": "[2]", "value": 7.75, "unit": "µM"}, {"measurement": "ΔHA, enthalpy of association", "setting": "[2]", "value": -6.2, "unit": "kcal/mol"}, {"measurement": "ΔSA, entropy of association", "setting": "[2]", "value": 2.6, "unit": "cal/mol·K"}, {"measurement": "IC50", "setting": "[3]", "value": "6 to 7", "unit": "µM"}, {"measurement": "L. monocytogenes uptake relative to untreated controls", "setting": "[4]", "value": "reducing the level of L. monocytogenes uptake"}, {"measurement": "expression of LLO and ActA (protein)", "setting": "[5]; 100 μM", "value": "abolished"}, {"measurement": "PrfA expression (protein)", "setting": "[5]; across all concentrations", "value": "remained unchanged"}, {"measurement": "concentration down to which LLO and ActA levels were decreased", "setting": "[5]; dose dependent", "value": "≤ 3.3", "unit": "µM"}, {"measurement": "LLO expression in strains 10403S, LO28 and F2365", "setting": "[6]", "value": "effectively reduced LLO expression"}, {"measurement": "levels of PrfA in strains 10403S, LO28 and F2365", "setting": "[6]", "value": "unaffected"}, {"measurement": "pilus biogenesis in E. coli", "setting": "[7]", "value": "blocked pilus biogenesis"}, {"measurement": "effect on the Crp-regulated pili expression in E. coli", "setting": "[8]", "value": "no effect"}]}
